Assay results from PMC9942557, “Bolaamphiphile Analogues of 12-bis-THA Cl2 Are Potent Antimicrobial Therapeutics with Distinct Mechanisms of Action against Bacterial, Mycobacterial, and Fungal Pathogens” (mSphere, 2022).

Columns and labels:
Assay in all cases: Selectivity index (toxicity/potency)
M. tuberculosis Bleupan = format: cell-based, Mycobacterium tuberculosis; conditions: ratio of average toxicity (HEK293 and HeLa) to potency
Description: TABLE 3 Selectivity indices of bolaamphiphiles | column: Selectivity of^a: / 12-bis-THA Cl2; Selectivity of^a: / Dequalinium; Selectivity of^a: / Penta-bola; Selectivity of^a: / Octa-bola; Selectivity of^a: / Octa-C8; Selectivity of^a: / Octa-C6

[1] = tested on: Gram-positive bacteria (avg); format: cell-based; conditions: ratio of average toxicity (HEK293 and HeLa) to average potency
[2] = tested on: Gram-negative bacteria (avg); format: cell-based; conditions: ratio of average toxicity (HEK293 and HeLa) to average potency
Description: (§1) TABLE 3 Selectivity indices of bolaamphiphiles | column: Selectivity of^a: / 12-bis-THA Cl2; Selectivity of^a: / Dequalinium; Selectivity of^a: / Quino-bola; Selectivity of^a: / Penta-bola; Selectivity of^a: / Hepta-bola; Selectivity of^a: / Octa-bola; Selectivity of^a: / Octa-C10; Selectivity of^a: / Octa-C8; Selectivity of^a: / Octa-C6

Fungi (avg) = format: cell-based, Candida spp.; conditions: ratio of average toxicity (HEK293 and HeLa) to average potency
Description: as §1

Row | SMILES | Selectivity index (M. tuberculosis Bleupan) | Selectivity index [1] | Selectivity index [2] | Selectivity index (Fungi (avg))
1 | Nc1c2c([n+](CCCCCCCCCCCC[n+]3c4c(c(N)c5ccccc53)CCCC4)c3ccccc13)CCCC2 [12-bis-THA Cl2, 12,12′-(Dodecane-1,12-diyl)-bis-(9-amino-1,2,3,4-tetrahydroacridinium) chloride] | 7.24 | 19.5 | 0.48 | 15.8
2 | Nc1c2c([n+](CCCCCCCCCCCC[n+]3c4c(c(N)c5ccccc53)CCCCC4)c3ccccc13)CCCCC2 [Hepta-bola] | – | 10.4 | 0.44 | 8.00
3 | Nc1c2c([n+](CCCCCC[n+]3c4c(c(N)c5ccccc53)CCCCCC4)c3ccccc13)CCCCCC2 [Octa-C6] | 113 | 2.94 | <1.63 | <6.52
4 | Nc1c2c([n+](CCCCCCCC[n+]3c4c(c(N)c5ccccc53)CCCCCC4)c3ccccc13)CCCCCC2 [Octa-C8] | 41.0 | 18.1 | 0.90 | 8.48
5 | Nc1c2c([n+](CCCCCCCCCC[n+]3c4c(c(N)c5ccccc53)CCCCCC4)c3ccccc13)CCCCCC2 [Octa-C10] | – | 23.9 | 1.07 | 11.6
6 | Nc1c2c([n+](CCCCCCCCCCCC[n+]3c4c(c(N)c5ccccc53)CCC4)c3ccccc13)CCC2 [Penta-bola] | 45.8 | 10.9 | 0.35 | 22.3
